A mixed list of measured activities; the numbers were collected in NIAID ChemDB.

All rows: growth or infection tests; organism: Aspergillus niger; endpoint: MFC

Blank or dashed fields: not listed here.

smiles | strain or isolate | method | result
OB1OC(N2CCCCC2)c2ccccc21 | - | turbidity | 62.5 µg/mL
Fc1ccccc1CO/N=C1\c2ccccc2OCC1n1cncn1 | ATCC 16401 | - | 32 µg/mL
CC(C)CC1NC(=O)CC(CCCCCCCCC(C)O)OC(=O)C(CC(C)C)NC(=O)C(CC(C)C)NC(=O)C(CC(C)C)NC(=O)C(C(C)C)NC(=O)C(CC(=O)O)NC(=O)C(CC(C)C)NC1=O | ATCC 16404 | visual reading | >32 µg/mL
Clc1ccc2c(c1)OCC(n1cnnc1)/C2=N\OCc1ccccc1 | ATCC 16401 | - | >64 µg/mL
CCCCCCCCCCCCCCCCCCCCCC[C@H](O)CCCCCC | - | broth dilution | 500 µM
Fc1ccc(CO/N=C2\c3ccccc3OCC2n2cncn2)cc1 | ATCC 16401 | - | 16 µg/mL
C=C1C(=O)O[C@@H]2/C=C(\CO)CCC=C(C)C[C@H](OC(=O)/C(=C/COC(C)=O)CO)[C@@H]12 | ATCC 6275 | - | 0.125 µg/mL
OB(O)c1ccccc1 | - | turbidity | 500 µg/mL
Clc1ccc(CO/N=C2/c3ccc(Cl)cc3OCC2n2cncn2)cc1 | ATCC 16401 | - | 64 µg/mL
OB1OCc2cc(F)ccc21 | - | turbidity | 0.9 µg/mL
O=C(Nc1nc2ccccc2[nH]1)c1cn[nH]c1C(=O)c1ccc(Cl)cc1 | - | broth dilution | 1.25 µg/mL
C=C(C(=O)O[C@H]1C[C@]2(C)[C@H]([C@@H](CO)CC[C@H]2O)[C@H]2OC(=O)C(=C)[C@@H]21)C(O)COC(C)=O | ATCC 6275 | - | 1 µg/mL
Clc1ccc(CO/N=C2/c3ccc(Cl)cc3OCC2n2cncn2)c(Cl)c1 | ATCC 16401 | - | 64 µg/mL
OB(O)c1c(F)cc(F)cc1F | - | turbidity | 250 µg/mL
C=C(C(=O)O[C@H]1CC(C)=CCC/C(CO)=C/[C@H]2OC(=O)C(=C)[C@H]12)C(O)CO | ATCC 6275 | - | 0.25 µg/mL

Neighbouring rows are from separate reports.